Measured values from several laboratories, pooled; numbers as filed in NIAID ChemDB.

Shared fields: enzyme or target tests; species: HIV; protein: Reverse transcriptase

Neighbouring rows are from separate reports. ICn is the concentration giving n% inhibition.

Nc1ncnc2c1ncn2[C@H]1CC[C@@H](COP(=O)(O)OP(=O)(O)OP(=O)(O)O)O1 ; endpoint: IC50 ; read by: nucleotide incorporation / radiometric ; changes: RT-F77L Q151M ; result: 20 µM
Nc1ncnc2c1ncn2[C@H]1CC[C@@H](COP(=O)(O)OP(=O)(O)OP(=O)(O)OP(=O)(O)OC[C@@H]2CC[C@H](n3cnc4c(N)ncnc43)O2)O1 ; endpoint: IC50 ; read by: nucleotide incorporation / radiometric ; changes: RT-W88G ; result: >15 µM
Nc1ncnc2c1ncn2[C@H]1CC[C@@H](COP(=O)(O)OP(=O)(O)OP(=O)(O)O)O1 ; endpoint: Ki ; changes: RT-L74V ; result: 18 µM
Cc1cc(Cc2ccc(Cl)c(Oc3cc(C#N)cc(C#N)c3)c2F)n[nH]c1=O ; endpoint: IC50 ; changes: G190A ; result: 0.001 µM
Nc1ncnc2c1ccn2[C@H]1C[C@H](F)[C@@H](COP(=O)(O)OP(=O)(O)OP(=O)(O)O)O1 ; endpoint: IC50 ; read by: nucleotide incorporation / radiometric ; changes: RT-W88G ; result: 0.31 µM
Cc1cn([C@H]2CC[C@@H](COP(=O)(O)OP(=O)(O)OP(=O)(O)O)O2)c(=O)[nH]c1=O ; endpoint: Ki ; changes: RT-T215Y ; result: 0.21 µM
CC(C)=CCN1Cc2cccc3[nH]c(=S)n(c23)C[C@@H]1C ; endpoint: Ki ; read by: nucleotide incorporation ; result: 1.2 µM
CC(C)=CCN1Cc2cccc3[nH]c(=S)n(c23)C[C@@H]1C ; endpoint: IC50 ; read by: nucleotide incorporation ; changes: RT-W266S ; result: >100 µM
CNc1ccccc1C(=O)O[C@H]1[C@@H](O)[C@H](n2cnc3c(N)ncnc32)O[C@@H]1COP(=O)(O)OP(=O)(O)OP(=O)(O)OP(=O)(O)OC[C@@H]1CC[C@H](n2cnc3c(=O)[nH]c(N)nc32)O1 ; endpoint: IC50 ; read by: nucleotide incorporation / radiometric ; changes: RT-M41L T215Y ; result: 3.8 µM
S=C(CCCc1ccccc1)Nc1ccc(Cl)cn1 ; endpoint: IC50 ; read by: radiometric ; changes: L100I ; result: >100 µM
Nc1ccn([C@@H]2CS[C@H](COP(=O)(O)OP(=O)(O)OP(=O)(O)O)O2)c(=O)n1 ; endpoint: Ki ; read by: radiometric ; changes: RT-M184V ; result: 101 µM
Fc1cccc(F)c1CC(=S)NCc1ccccn1 ; endpoint: IC50 ; read by: radiometric ; changes: Y181I ; result: >100 µM
Nc1ccn([C@H]2CC[C@@H](COP(=O)(O)OP(=O)(O)OP(=O)(O)O)O2)c(=O)n1 ; endpoint: IC50 ; read by: nucleotide incorporation / radiometric ; changes: RT-K65R ; result: 0.44 µM
Fc1cccc(F)c1CC(=S)NCCc1ccccn1 ; endpoint: IC50 ; read by: radiometric ; changes: K103N ; result: >100 µM
Nc1nc2c(ncn2[C@H]2CC[C@@H](COP(=O)(O)OP(=O)(O)OP(=O)(O)O)O2)c(=O)[nH]1 ; endpoint: IC50 ; read by: nucleotide incorporation / radiometric ; result: 0.11 µM
Nc1nc2c(ncn2[C@H]2CC[C@@H](COP(=O)(O)OP(=O)(O)NP(=O)(O)OP(=O)(O)OC[C@H]3O[C@@H](n4cnc5c(N)ncnc54)[C@H](O)[C@@H]3O)O2)c(=O)[nH]1 ; endpoint: IC50 ; read by: nucleotide incorporation / radiometric ; changes: RT-M41L T215Y ; result: >37 µM
Fc1cccc(F)c1CC(=S)Nc1ccc(Cl)cn1 ; endpoint: IC50 ; read by: radiometric ; changes: Y181I ; result: >100 µM